Compound potency records, mixed from different reports. Data source: NIAID ChemDB in PubChem.

Shared fields: growth or infection tests; agent: Mycobacterium avium

Inhibition is in % at the dose shown (toxicity tests: loss of growth or viability). An empty or dashed field is not shown. Rows are shuffled and stem from different studies.

SMILES | strain or isolate | dose | method | endpoint | value
COc1ccc(-n2c(=O)oc3ccc(F)cc3c2=O)cc1 | CNCTC MY330/88 |  |  | MIC | 31 µM
Cc1nc2ccc(Cl)cn2c1C(=O)NCc1ccc(N2C[C@H](C)N(c3ccc(OC(F)(F)F)cc3)C[C@H]2C)c(F)c1 |  | 0.022 µM | fluorescence | inhibition | 85%
O=c1oc2ccccc2c(=O)n1-c1cccc(F)c1 | CNCTC MY330/88 |  |  | MIC | 62 µM
Cc1cn2c(C(=O)NCc3ccc(-c4ccc(OCC(F)(F)F)cc4)c(F)c3)c(C)nc2s1 |  | 0.031 µM | fluorescence | inhibition | 85%
CCc1cn([C@H]2C[C@H](O)[C@@H](CO)O2)c(=O)[nH]c1=O | ATCC 25291 | 50 µg/mL |  | inhibition | 0%
CCc1nc2cc(F)ccn2c1C(=O)NCc1ccc(N2CCN(c3ccc(OC(F)(F)F)cc3)[C@@H](C)C2)c(Cl)c1.Cl |  | 0.002 µM | fluorescence | inhibition | 85%
Cc1cn([C@@H]2O[C@H](CO)[C@@H](O)[C@H]2F)c(=O)[nH]c1=O | ATCC 25291 | 50 µg/mL |  | inhibition | 0%
CC(C)N=c1cc2n(-c3ccc(Cl)cc3)c3ccccc3nc-2cc1Nc1ccc(Cl)cc1 | 19894 |  |  | MIC | 5 µg/mL
Cc1cn2c(C(=O)NCc3cc(F)c(N4CCC(c5ccc(OC(F)(F)F)cc5)CC4)c(F)c3)c(C)nc2s1.Cl |  | 0.11 µM | fluorescence | inhibition | 85%
O=c1[nH]c(=O)n([C@H]2C=C[C@@H](CO)O2)cc1I | ATCC 25291 | 50 µg/mL |  | inhibition | 0%
Cc1ccc2oc(=O)n(-c3ccc(Cl)cc3)c(=O)c2c1 | CNCTC MY330/88 |  |  | MIC | 32 µM
O=c1[nH]c(=O)n([C@H]2C[C@H](O)[C@@H](CO)O2)cc1F | ATCC 25291 | 50 µg/mL |  | inhibition | 80%
CC[C@H]1CN(c2ccc(CNC(=O)c3c(C)nn4ccc(OC)cc34)cc2F)CCN1c1ccc(OC(F)(F)F)cc1.Cl |  | 0.019 µM | fluorescence | inhibition | 85%
Cc1ccc2oc(=O)n(-c3ccc(C(F)(F)F)cc3)c(=O)c2c1 | CNCTC MY330/88 |  |  | MIC | 8 µM
Cc1cn([C@@H]2O[C@H](CO)[C@@H](O)[C@@H]2O)c(=O)[nH]c1=O | ATCC 25291 | 50 µg/mL |  | inhibition | 0%

Repeating the final 2 entries:

Cc1ccc2oc(=O)n(-c3ccc(C(F)(F)F)cc3)c(=O)c2c1 ; strain or isolate: CNCTC MY330/88 ; endpoint: MIC ; value: 8 µM
Cc1cn([C@@H]2O[C@H](CO)[C@@H](O)[C@@H]2O)c(=O)[nH]c1=O ; strain or isolate: ATCC 25291 ; dose: 50 µg/mL ; endpoint: inhibition ; value: 0%